Data as given in patent publication US20160264649A1 (published 2016).

B1: PGT-123 monoclonal antibody (4858_P08) (antibody, V domains shown)
VH: QLHLQESGPGLVKPPETLSLTCSVSGASINDAYWSWIRQSPGKRPEWVGYVHHSGDTNYNPSLKRRVTFSLDTAKNEVSLKLVDLTAADSATYFCARALHGKRIYGIVALGELFTYFYMDVWGKGTAVTVSS
VL: SSMSVSPGETAKISCGKESIGSRAVQWYQQKPGQPPSLIIYNNQDRPAGVPERFSASPDFRPGTTATLTITNVDAEDEADYYCHIYDARGGTNWVFDRGTTLTVL
B2: PGT-125 monoclonal antibody (5123_A06) (antibody, V domains shown)
VH: QSQLQESGPRLVEASETLSLTCNVSGESTGACTYFWGWVRQAPGKGLEWIGSLSHCQSFWGSGWTFHNPSLKSRLTISLDTPKNQVFLKLTSLTAADTATYYCARFDGEVLVYNHWPKPAWVDLWGRGIPVTVSS
VL: QSALTQPPSASGSPGQSITISCNGTATNFVSWYQQFPDKAPKLIIFGVDKRPPGVPDRFSGSRSGTTASLTVSRLQTDDEAVYYCGSLVGNWDVIFGGGTTLTVL
B3: PGT-126 monoclonal antibody (5141_B17) (antibody, V domains shown)
VH: QPQLQESGPGLVEASETLSLTCTVSGDSTAACDYFWGWVRQPPGKGLEWIGGLSHCAGYYNTGWTYHNPSLKSRLTISLDTPKNQVFLKLNSVTAADTAIYYCARFDGEVLVYHDWPKPAWVDLWGRGTLVTVSS
VL: QSALTQPPSASGSPGQSISISCTGTSNRFVSWYQQHPGKAPKLVIYGVNKRPSGVPDRFSGSKSGNTASLTVSGLQTDDEAVYYCSSLVGNWDVIFGGGTKLTVL
B4: PGT-145 (4995_P16) (antibody, V domains shown)
VH: QVQLVQSGAEVKKPGSSVKVSCKASGNSFSNHDVHWVRQATGQGLEWMGWMSHEGDKTGLAQKFQGRVTITRDSGASTVYMELRGLTADDTAIYYCLTGSKHRLRDYFLYNEYGPNYEEWGDYLATLDVWGHGTAVTVSS
VL: EVVITQSPLFLPVTPGEAASLSCKCSHSLQHSTGANYLAWYLQRPGQTPRLLIHLATHRASGVPDRFSGSGSGTDFTLKISRVESDDVGTYYCMQGLHSPWTFGQGTKVEIK
B5: PGT-121 monoclonal antibody (4838_L06; 4873_E03) (antibody, V domains shown)
VH: QMQLQESGPGLVKPSETLSLTCSVSGASISDSYWSWIRRSPGKGLEWIGYVHKSGDTNYSPSLKSRVNLSLDTSKNQVSLSLVAATAADSGKYYCARTLHGRRIYGIVAFNEWFTYFYMDVWGNGTQVTVSS
VL: SDISVAPGETARISCGEKSLGSRAVQWYQHRAGQAPSLIIYNNQDRPSGIPERFSGSPDSPFGTTATLTITSVEAGDEADYYCHIWDSRVPTKWVFGGGTTLTVL
B6: PGT-144 (4970_K22) (antibody, V domains shown)
VH: QVQLVQSGAEVKKPGSSVKVSCKASGNTFRKYDVHWVRQATGQGLEWVGWMSHEGDKTESAQRFKGRVSFTRDNSASTAYIELRGLTSDDTAIYYCTGGSKHRLRDYVLYDDYGLINQQEWNDYLEFLDVWGHGTAVTVSS
VL: DTVVTQSPLSLSVTPGEAASMSCTSTQSLRHSNGANYLAWYQHKPGQSPRLLIRLGSQRASGVPDRFSGSGSGTHFTLKISRVEADDAAIYYCMQGLNRPWTFGKGTKLEIK

How the values were obtained:
Assay in all cases: cell-based or functional assay
[1] = biological target: HIV-1 Env of isolate MG RM-C-001 (HIV-1)
[2] = biological target: HIV-1 Env of isolate MG RM-C-002 (HIV-1)
[3] = biological target: HIV-1 Env of isolate MG RM-C-004 (HIV-1)
[4] = biological target: HIV-1 Env of isolate MG RM-C-005 (HIV-1)
[5] = biological target: HIV-1 Env of isolate MG RM-C-006 (HIV-1)
[6] = biological target: HIV-1 Env of isolate MG RM-C-007 (HIV-1)
[7] = biological target: HIV-1 Env of isolate MG RM-C-008 (HIV-1)
[8] = biological target: HIV-1 Env of isolate MG RM-C-009 (HIV-1)
[9] = biological target: HIV-1 Env of isolate MG RM-C-010 (HIV-1)
[10] = biological target: HIV-1 Env of isolate MG RM-C-012 (HIV-1)
[11] = biological target: HIV-1 Env of isolate MG RM-C-013 (HIV-1)
[12] = biological target: HIV-1 Env of isolate MG RM-C-014 (HIV-1)
[13] = biological target: HIV-1 Env of isolate MG RM-C-015 (HIV-1)
[14] = biological target: HIV-1 Env of isolate MG RM-C-017 (HIV-1)
[15] = biological target: HIV-1 Env of isolate MG RM-C-019 (HIV-1)
[16] = biological target: HIV-1 Env of isolate MG RM-A-001 (subtype A) (HIV-1)
[17] = biological target: HIV-1 Env of isolate MG RM-A-002 (subtype A) (HIV-1)
[18] = biological target: HIV-1 Env of isolate MG RM-A-003 (subtype A) (HIV-1)
[19] = biological target: HIV-1 Env of isolate MG RM-A-004 (subtype A) (HIV-1)
[20] = biological target: HIV-1 Env of isolate MG RM-A-005 (subtype A) (HIV-1)
[21] = biological target: HIV-1 Env of isolate MG RM-A-006 (subtype A) (HIV-1)
[22] = biological target: HIV-1 Env of isolate MG RM-A-007 (subtype A) (HIV-1)
[23] = biological target: HIV-1 Env of isolate MG RM-A-008 (subtype A) (HIV-1)
[24] = biological target: HIV-1 Env of isolate MG RM-A-009 (subtype A) (HIV-1)
[25] = biological target: HIV-1 Env of isolate MG RM-A-010 (subtype A) (HIV-1)
[26] = biological target: HIV-1 Env of isolate MG RM-A-011 (subtype A) (HIV-1)
[27] = biological target: HIV-1 Env of isolate MG RM-A-012 (subtype A) (HIV-1)
[28] = biological target: HIV-1 Env of isolate MG RM-A-013 (subtype A) (HIV-1)
[29] = biological target: HIV-1 Env of isolate MG RM-A-014 (subtype A) (HIV-1)
[30] = biological target: HIV-1 Env of isolate MG RM-AG-001 (subtype AG) (HIV-1)
[31] = biological target: HIV-1 Env of isolate MG RM-AG-002 (subtype AG) (HIV-1)
[32] = biological target: HIV-1 Env of isolate MG RM-AG-003 (subtype AG) (HIV-1)
[33] = biological target: HIV-1 Env of isolate MG RM-AG-005 (subtype AG) (HIV-1)
[34] = biological target: HIV-1 Env of isolate MG RM-AG-006 (subtype AG) (HIV-1)
[35] = biological target: HIV-1 Env of isolate MG RM-AG-008 (subtype AG) (HIV-1)
[36] = biological target: HIV-1 Env of isolate MG RM-AG-009 (subtype AG) (HIV-1)
[37] = biological target: HIV-1 Env of isolate MG RM-AG-011 (subtype AG) (HIV-1)
[38] = biological target: HIV-1 Env of isolate MG RM-AG-012 (subtype AG) (HIV-1)
[39] = biological target: HIV-1 Env of isolate MG RM-AG-013 (subtype AG) (HIV-1)

Binder	neutralization IC50 [1]	neutralization IC50 [2]	neutralization IC50 [3]	neutralization IC50 [4]	neutralization IC50 [5]	neutralization IC50 [6]	neutralization IC50 [7]	neutralization IC50 [8]	neutralization IC50 [9]	neutralization IC50 [10]	neutralization IC50 [11]	neutralization IC50 [12]	neutralization IC50 [13]	neutralization IC50 [14]	neutralization IC50 [15]	IC50, pseudovirus neutralization [16]	IC50, pseudovirus neutralization [17]	IC50, pseudovirus neutralization [18]	IC50, pseudovirus neutralization [19]	IC50, pseudovirus neutralization [20]	also measured
B1	42.4 µg/mL	0.01 µg/mL	0.009 µg/mL	0.012 µg/mL	0.021 µg/mL	0.547 µg/mL	0.011 µg/mL	> 50 µg/mL	> 50 µg/mL	0.606 µg/mL	14.9 µg/mL	1 µg/mL	13.1 µg/mL	0.01 µg/mL	> 50 µg/mL	–	–	–	–	–	–
B2	> 50 µg/mL	0.008 µg/mL	1.82 µg/mL	2.09 µg/mL	0.015 µg/mL	> 50 µg/mL	> 50 µg/mL	> 50 µg/mL	> 50 µg/mL	> 50 µg/mL	> 50 µg/mL	> 50 µg/mL	> 50 µg/mL	2.36 µg/mL	0.13 µg/mL	–	–	–	–	–	–
B3	> 50 µg/mL	0.011 µg/mL	0.033 µg/mL	0.298 µg/mL	0.014 µg/mL	25.3 µg/mL	2.12 µg/mL	> 50 µg/mL	> 50 µg/mL	0.111 µg/mL	> 50 µg/mL	> 50 µg/mL	3.14 µg/mL	0.17 µg/mL	0.006 µg/mL	–	–	–	–	–	–
B4	–	–	–	–	–	–	–	–	–	–	–	–	–	–	–	0.062 µg/mL	0.019 µg/mL	3.31 µg/mL	0.068 µg/mL	0.128 µg/mL	IC50, pseudovirus neutralization [21]: > 50 µg/mL; IC50, pseudovirus neutralization [22]: > 50 µg/mL; IC50, pseudovirus neutralization [23]: > 50 µg/mL; IC50, pseudovirus neutralization [24]: 0.235 µg/mL; IC50, pseudovirus neutralization [25]: 0.028 µg/mL; IC50, pseudovirus neutralization [26]: 0.484 µg/mL; IC50, pseudovirus neutralization [27]: 0.23 µg/mL; IC50, pseudovirus neutralization [28]: 1.76 µg/mL; IC50, pseudovirus neutralization [29]: 1.36 µg/mL; IC50, pseudovirus neutralization [30]: 0.164 µg/mL; IC50, pseudovirus neutralization [31]: 0.056 µg/mL; IC50, pseudovirus neutralization [32]: > 50 µg/mL; IC50, pseudovirus neutralization [33]: 0.045 µg/mL; IC50, pseudovirus neutralization [34]: 6.6 µg/mL; IC50, pseudovirus neutralization [35]: 0.244 µg/mL; IC50, pseudovirus neutralization [36]: > 50 µg/mL; IC50, pseudovirus neutralization [37]: 0.003 µg/mL; IC50, pseudovirus neutralization [38]: > 50 µg/mL; IC50, pseudovirus neutralization [39]: 14.4 µg/mL
B5	17.5 µg/mL	0.019 µg/mL	0.011 µg/mL	0.015 µg/mL	0.017 µg/mL	0.196 µg/mL	0.012 µg/mL	> 50 µg/mL	> 50 µg/mL	0.123 µg/mL	7.23 µg/mL	26.9 µg/mL	25.1 µg/mL	0.009 µg/mL	> 50 µg/mL	–	–	–	–	–	–
B6	–	–	–	–	–	–	–	–	–	–	–	–	–	–	–	1.11 µg/mL	0.085 µg/mL	> 50 µg/mL	0.855 µg/mL	18.6 µg/mL	IC50, pseudovirus neutralization [21]: > 50 µg/mL; IC50, pseudovirus neutralization [22]: > 50 µg/mL; IC50, pseudovirus neutralization [23]: > 50 µg/mL; IC50, pseudovirus neutralization [24]: 2.83 µg/mL; IC50, pseudovirus neutralization [25]: 2.79 µg/mL; IC50, pseudovirus neutralization [26]: > 50 µg/mL; IC50, pseudovirus neutralization [27]: > 50 µg/mL; IC50, pseudovirus neutralization [28]: > 50 µg/mL; IC50, pseudovirus neutralization [29]: > 50 µg/mL; IC50, pseudovirus neutralization [30]: > 50 µg/mL; IC50, pseudovirus neutralization [31]: 7.78 µg/mL; IC50, pseudovirus neutralization [32]: > 50 µg/mL; IC50, pseudovirus neutralization [33]: > 50 µg/mL; IC50, pseudovirus neutralization [34]: > 50 µg/mL; IC50, pseudovirus neutralization [35]: > 50 µg/mL; IC50, pseudovirus neutralization [36]: > 50 µg/mL; IC50, pseudovirus neutralization [37]: 44.6 µg/mL; IC50, pseudovirus neutralization [38]: > 50 µg/mL; IC50, pseudovirus neutralization [39]: > 50 µg/mL
